By UniProt entry, the sequences of proteins in these tests, tags left out.
UniProt Q7Z1V1, whole entry: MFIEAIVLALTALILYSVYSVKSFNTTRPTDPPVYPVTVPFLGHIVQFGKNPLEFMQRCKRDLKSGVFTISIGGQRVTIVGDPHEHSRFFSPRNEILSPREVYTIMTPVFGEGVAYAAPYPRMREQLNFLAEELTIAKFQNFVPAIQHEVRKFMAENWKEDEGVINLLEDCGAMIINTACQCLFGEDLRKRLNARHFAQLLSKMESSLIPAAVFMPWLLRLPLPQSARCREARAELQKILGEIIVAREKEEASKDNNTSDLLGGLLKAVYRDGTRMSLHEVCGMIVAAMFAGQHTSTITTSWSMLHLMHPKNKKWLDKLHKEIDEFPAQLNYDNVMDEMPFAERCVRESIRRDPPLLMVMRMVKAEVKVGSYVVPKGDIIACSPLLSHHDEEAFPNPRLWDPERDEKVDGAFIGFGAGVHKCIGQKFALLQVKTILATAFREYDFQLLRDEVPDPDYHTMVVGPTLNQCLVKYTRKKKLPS

According to ChEMBL document CHEMBL3430912, “GSK Tres Cantos Anti-Kinetoplastid Screening (TCAKS) Data”:

Target: Sterol 14-alpha demethylase (Trypanosoma cruzi (strain CL Brener), UniProt Q7Z1V1)
Assay: GSK_TCAKS: pIC50 CYP51 from Trypanosoma cruzi.
Type: functional

Structure (SMILES): O=C(Cc1ccc(F)cc1)N(Cc1cccnc1)C1CCN(CCc2cccs2)CC1
- pIC50: 7.6
